Measured values from several laboratories, pooled; numbers as filed in NIAID ChemDB.

All rows: tests in culture; species: Mycobacterium bovis; endpoint: MIC

An empty or dashed field is not shown. Rows are shuffled and stem from different studies. a–b is a range or a potency band.

| structure | strain | value |
|---|---|---|
| CCCCCCCCCCCCc1ccc(NC(=O)C2=CCN(C)[C@@H]([C@H](O[C@@H]3O[C@H](CN)[C@@H](O)[C@H]3O)[C@H]3O[C@@H](n4ccc(=O)[nH]c4=O)[C@H](O)[C@@H]3O)C(=O)N2C)cc1 | Ravenel | 3.13 µg/mL |
| CC1COc2c(N3CCN(C)CC3)c(F)cc3c(=O)c(C(=O)O)cn1c23 | 5 strains | >0.63 µg/mL |
| CCCCCCCCO[C@H]1COc2nc([N+](=O)[O-])cn2C1 | rBCG-lux | 8 µg/mL |
| CC1(C)CC(C)(C)c2cccc(NC(=S)Nc3ccc([N+](=O)[O-])cc3)c2O1 | BCG | 20–40 µg/mL |
| COC1=C2C(=O)O[C@@]13C[C@@H](C)C=C[C@H]3/C=C/C(=O)[C@@H](C)C[C@@H](C)C2=O | - | 40 µg/mL |
| O=C(N[C@@H]1COc2nc([N+](=O)[O-])cn2C1)c1ccccc1 | rBCG-lux | >8 µg/mL |
| C[C@]1(COc2ccc(N3CCC(Oc4ccc(OC(F)(F)F)cc4)CC3)cc2)Cn2cc([N+](=O)[O-])nc2O1 | BCG/TOKYO | 0.012 µg/mL |
| C/C=C/C/C=C/CCC(=O)[C@H]1O[C@H]1C(N)=O | BCG (PMV261::KASA) | 0.1 µg/mL |
| Cc1cc(=O)n([C@@H]2O[C@H](CO)C3CC(=S)OC32)c(=O)[nH]1 | BCG | 500 µg/mL |
| CC(C)CCOc1ccc(NC(=S)Nc2ccc(OCCC(C)C)cc2)cc1 | BCG | 0.5–1 µg/mL |
| O=[N+]([O-])c1cn2c(n1)OC[C@@H](OCc1ccccc1)C2 | rBCG-lux | 8 µg/mL |
| CCOC(=O)c1ccc(NC(=O)Nc2ccc3c(c2)C(C)(C)CC(C)(C)S3)cc1 | BCG | 20–40 µg/mL |
| CC(C)CCOc1ccc(NC(=S)Nc2ccc(Cc3ccccc3)cc2)cc1 | BCG | 1.75 µg/mL |
| CC(C)CCOc1ccc(NC(=S)Nc2ccc(OCCC(C)C)cc2)cc1 | BCG | 0.5 µg/mL |
| NNC(=O)c1ccncc1 | BCG (PMV261::KASAB) | 0.05 µg/mL |
| CCOC(=O)c1ccc(NC(=O)Nc2cccc3c2OC(C)(C)CC3(C)C)cc1 | BCG | 20–40 µg/mL |
| CCCCCCCCOCCn1cc([N+](=O)[O-])nc1OC | rBCG-lux | ≥25 µg/mL |
| C=C/C(C)=C/[C@@]1(C)SC(=O)C(C)=C1O | BCG (PMV261::KASAB) | 150–200 µg/mL |
| CCOC(=O)c1ccc(NC(=O)Nc2ccc3c(c2)C(C)(C)CC(C)(C)O3)cc1 | BCG | 20–40 µg/mL |
| CCC1Cn2cc([N+](=O)[O-])nc2O1 | rBCG-lux | 1 µg/mL |
| CC(C)CCOc1ccc(NC(=S)Nc2ccc(OCCC(C)C)cc2)cc1 | BCG (PMV261) | 0.25–0.5 µg/mL |
| Cc1c(C)c(C)[c-](C)c1C.N[C@H](C(=O)[O-])c1ccccc1.[Cl][Rh+2] | ATCC 35745 | 7 µg/mL |
| CCCCCCCCOC1CCOc2nc([N+](=O)[O-])cn2C1 | rBCG-lux | >50 µg/mL |

The last 2 rows once more:

structure	strain	value
Cc1c(C)c(C)[c-](C)c1C.N[C@H](C(=O)[O-])c1ccccc1.[Cl][Rh+2]	ATCC 35745	7 µg/mL
CCCCCCCCOC1CCOc2nc([N+](=O)[O-])cn2C1	rBCG-lux	>50 µg/mL